Laboratory results taken from US20200024639A1.

Target: HA-NanoLuc-VAMP2 (UniProt P63027)
Assay: cell-based or functional assay

botulinum neurotoxin type D (from UniProt P19321 2-1276) (enzyme)
cleavage of the reporter in SiMa cells, immunoblot with total VAMP2 antibody: 10 nM
